Tested on: Nc1nc2c(ncn2[C@@H]2O[C@H](COP(=O)(O)O)[C@@H](O)[C@H]2O)c(=O)[nH]1
Assay: purified protein
Conditions: pH 7.5; 30.0 °C

## (Mycobacterium tuberculosis H37Rv)
  Km: 138 ± 23 µM
